Substitutions are numbered along the chain they refer to. This is one part of the list. Env chains of viruses from a treatment-interruption trial, translated from the printed DNA. IC50 / IC80 of two broadly neutralizing antibodies; lower = more sensitive virus; >50 µg/ml means not reached and <0.001 µg/ml is below the lowest dose. No active / inactive call. Bounds are passed on as bounds.

B1: HIV-1 Env, rebound clone, placebo arm (protein)
chain: MRVMGTQRNYPLFWNWVIIIFWIIIIGNANKLWVTVYYGVPVWKEAETTLFCASDAKAYNTEVHNVWATHACVPTDPDPREIPLENVTEEFNIWKNDMVEQMHQDIISLWDQSLKPCVKLTPLCVTLNCTNATPINATGSIEGNSTDMKNCSFNVTTIRRDKMQKEYALFYNLDIVQIDDSDNSSYRLVSCNTSVITQACPKVSFEPIPIHYCAPAGFAIIKCNNKTFNGTGPCTNVSTVQCTHGIKPVVSTQLLLNGSLAEEKIMIRSENITNSAKTIIVQLNESVTINCTRPGNNTRKSIRIGPGQTYYATGAIIGDIRQAHCNVSKEKWMSTLQKVAKQLGEHFISAQNISFNSSSGGDVEITTHSFICGGEFFYCNTTGLFNSTWMIRNNTWNYNESSSNWTGTITLQCRIKQYVNLWQRVGRAMYAPPIRGDINCTSNITGLLLTRDGGGNNESETFRPIGGDMRDNWRSELYKYKVVKIEPLGVAPTYAKRRVVGREKRAVGLGAVFLGFLGAAGSTMGAASITLTVQARQLLSGIVQQQSNLLQAIEAQQHLLRLTVWGIKQLQARVLALERYLRDQQLLGIWGCSGKLICPTTVPWNSSWSNNKTFNEIWDNMTWLQWDREISNYTEIIYALIEQSQNQQEKNEQDLLALDKWANLWNWFDITNWLWYIKIFIIIVGGLIGLRIVFAVFSLVNRVRQGYSPLSFQILNHRQQEPDRPGRIEEEGGEQDRDRSVRLVSGFLALAWDDLRSLCLFLYHRLRDSVLIATRGVELLGHSILKGLRLGWEALKHLWNLLSYWSQELKNSAISLFDTIAIAVANWTDRAIELGQAAGRAILHIPRRIRQGLERALL
B2: HIV-1 Env, rebound clone, placebo arm (protein)
chain: MRVKGIKKNYQRLWRWGTMLLGLLMICNAEKLWVTVYYGVPVWKEATTTLFCASDAKGYDTEAHNVWATHACVPTDPNPQEIDLVNVNESFNMWKNNMVEQMHQDIISLWDQSLKPCVRLTPLCVKLNCTDLKKGNSTQNTTNATKLEEKGEGEVKNCSFNITTNYNDKKQQEYAFFYNLDVVKVGDNDTSYRLISCNTSVVTQACPKINFDPIPIHYCAPAGFAILKCKDKKFNGTGICTNVSTVQCTHGIKPVVSTQLLLNGSLAEEEVVIRSENFTNNAKTIIVQLNEAVAINCTRPNNNTRKSIHMGPGKAFYTTGDIIGDIRQAHCNISKGEWNKTLSRVVEKLQGQFGNKTINFNQSSGGDPEIVMHSFNCAGEFFYCNTTGLFNSTWISPSNSTWNNTWNSTENIGENITLPCRIKQIVNRWQEVGKAIYAPPIKGPISCSSNITGILLTRDGGNDNITNNTETFRPGGGDMRDNWRSELYKYKVVEIKPLGVAPTKAKRRVVQREKRAVGLGAVLFGFLGAAGSTMGAASVTLTVQARQLLSGIVQQQNNLLKAIEAQQHLLQLTVWGIKQLQARVLAVERYLRDQQLLGLWGCSGKLICTTAVPWNTSWSNKSMTQIWNHTTWMQWEREIDNYTNIIYNLIEDSQNQQEQNEKELLELDKWASLWNWFDITNWLWYIKLFIMIVGGLIGLRIVFAVLSIVKRVRQGYSPLSLQTLLPTQRGPDRPEGIEEGGGERDRDRSRRLVDGFLALIWDDLRSLCLFSYHRLRDLLLIVTRIVGLLGRRGWDILKYWWNLLQYWIQELKNSAVSLLNYTAIAVAEGTDRIIEVLQRIFRAVLHIPTRIRQGLERALV
B3: HIV-1 Env, rebound clone, placebo arm (protein)
chain: B2 chain with K126N, F176L, T298I, E337K, G413E, K561R, D640E, A858T
B4: HIV-1 Env, rebound clone, placebo arm (protein)
chain: MRVMGTQRNYPRFWNWVMIIFWIIIIGNANQLWVTVYYGVPVWKEAETTLFCASDAKAYDTEVHNVWATHACVPTDPDPREIPLENVTEKFNIWKNDMVEQMHQDIISLWDQSLKPCVKLTPLCVTLNCTNINATGSIVGNSTDMKNCSFNVTTIRRDKMQKEYALFYNLDIVQIDNSDNSSYRLVSCNTSVITQACPKVSFEPIPIHYCAPAGFAIIKCNNKTFNGTGPCTNVSTVQCTHGIKPVVSTQLLLNGSLAEEKIMIRSENITNSAKTIIVQLNESVTINCTRPGNNTRKSIRIGPGQTYYATGAIIGDIRQAHCNVSKEKWMSTLQKVAKQLGEHFISAQNISFNSSSGGDVEITTHSFICGGEFFYCNTTGLFNSTWMIRNNTYNENSSNESGTITLQCRIKQYVNLWQRVGRAMYAPPIRGDINCTSNITGLLLTRDGGGNNESETFRPIGGDMRDNWRSELYKYKVVKIEPLGVAPTYAKRRVVGREKRAVGLGAVFLGFLGAAGSTMGAASITLTVQARQLLSGIVQQQSNLLKAIEAQQHLLRLTVWGIKQLQARVLALERYLRDQQLLGIWGCSGKLICPTTVPWNSSWSNKTFNEIWDNMTWLQWDKEISNYTETIYALIEQSQNQQEKNEQDLLALDKWANLWNWFDITKWLWYIKIFIMIVGGLIGLRIVFAVFSLVNRVRQGYSPLSFQILTHRQREPDRPGRIEEEGGEQDRDRSVRLVSGFLALAWDDLRSLCLFLYHRLRDSVLIATRGVELLGHSILKGLRLGWEALKHLWNLLSYWSQELKNSAISLFDTIAIAVANWTDRAIELGQAAGRAILHIPRRIRQGLERALL
B5: HIV-1 Env, rebound clone, placebo arm (protein)
chain: MRVKGIKKNYQRLWRWGTMLLGLLMICNAEKLWVTVYYGVPVWKEATTTLFCASDAKGYDTEAHNVWATHACVPTDPNPQEIDLVNVNESFNMWKNNMVEQMHQDIISLWDQSLKPCVRLTPLCVNLNCTDLKKGNSTQNTTNTKLEEKGEGEVKNCSFNITTNYNDKKQQEYALFYNLDVVKVGDNDTSYRLISCNTSVVTQACPKINFDPIPIHYCAPAGFAILKCKDKKFNGTGICTNVSTVQCTHGIKPVVSTQLLLNGSLAEEEVVIRSENFTNNAKTIIVQLNEAVAINCIRPNNNTRKSIHMGPGKAFYTTGDIIGDIRQAHCNISKGEWNKTLSRVVEKLQGQFGNKTINFNQSSGGDPEIVMHSFNCAGEFFYCNTTGLFNSTWISPPNSTWNNTWNSTENIRENITLPCRIKQIVNRWQEVGKAIYAPPIKGPISCSSNITGILLTRDGGNDNITNNTETFRPGGGDMRDNWRSELYKYKVVEIKPLGVAPTKAKRRVVQREKRAVGLGAVLFGFLGAAGSTMGAASVTLTVQARQLLSGIVQQQNNLLRAIEAQQHLLQLTVWGIKQLQARVLAVERYLRDQQLLGLWGCSGKLICTTAVPWNTSWSNKSMTQIWNHTTWMQGEREIENYTNIIYNLIEDSQNQQEQNEKELLELDKWASLWNWFDITNWLWYIKLFIMIVGGLIGLRIVFAVLSIVKRVRQGYSPLSLQTLLPTQRGPDRPEGIEEGGGERDRDRSRRLVDGFLALIWDDLRSLCLFSYHRLRDLLLIVTRIVGLLGRRGWDILKYWWNLLQYWIQELKNSAVSLLNYTAIAVAEGTDRIIEVLQRIFRAVLHIPTRIRQGLERTLV
B6: HIV-1 Env, rebound clone, placebo arm (protein)
chain: MRVMGMLRNWQHLEKWGLLFLGLLIICSAKDNLWVTVYYGVPVWKEATTTLFCASDAKGYDKEAHNVWATHACVPTDPNPQEIWLKNVTENFNIWRNDMVEQMHTDIISLWDESLKPCVKITPLCVTLNCTNAKFNSTSANSTQEEPGAVQNCTFNTTTELRDKKQKVYALFYRLDLIPLKENNASNNASNEYILINCNTSIIKQACPKVSWDPIPIHYCAPAGYAILKCRDKKFNGTGPCKNVSTVQCTHGVKPVVSTQLLLNGSLAEEDIVIRSENISDNAKTIIVSLNEPVQINCTRPGNNTRKGIHLGPGQTFYARGDIIGDIRKAHCKINKSQWNKTLAQVSTELKSLLNITGVVFKPPVGGDLEVTMHSFNCRGEFFYCNTSGLFNFSYSVPTNETITINETITIPCKIKQIINMWQGVGQAMYAPPIAGNITCNSNITGILLIRDGGPNSTNNDTFRPGGGDMRDNWRSELYKYKVVEIEPLGVAPTRARRQVVRRERRAVGIGAVFLGFLGAAGSTMGAASITLTVQARQLLSGIVQQQRNLLQAIEAQQHLLKLTVWGIKQLQARVLAVERYLKDQQLLGIWGCSGKLICTTSVPWNSSWSNRSLDEIWNNMTWIDWEREISNYSQEIYKLIEQSQNQQEKNEQELLALDKWASLWSWFDITNWLWYIKIFIMIVGGLIGLRIVFAVLAIVNRVRKGYSPLSLQTLIPSPRGPDRPDGIEEGGGEQGRDRSVRLVTGFLALVWDDLRNLCLFSYRHLRDFILIAARVVDRGLRRGWEILKYLWNLTKYWSQELKNSATSLFNSTAIVVAEGTDRIIEALQAVIRAVLHIPRRIRQGFERALL

One test deals with antibody 10-1074. Kind of test: neutralization IC50; higher = virus less sensitive to the antibody. How it is done: (§1)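 Pseudovirus bearing the Env chain mixed with antibody, from 50 µg/ml in fivefold dilutions, on TZM-bl reporter cells, in duplicate.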
B1: the “neutralization IC50” value worked out at 0.013 µg/mL.

With B2, the “neutralization IC50” value was 0.078 µg/mL.

As to B3, the “neutralization IC50” value turned out to be 0.077 µg/mL.

Turning to B4, the “neutralization IC50” value is 0.001 µg/mL.

Turning to B5, the “neutralization IC50” value turned out to be 0.038 µg/mL.

As to B6, the “neutralization IC50” value was found to be 3.13 µg/mL.

For a further test, the target named is antibody 3BNC117. Described as above. Here is the method: as §1
Turning to B1, the “neutralization IC50” value was 4.76 µg/mL.

For the molecule B2, the “neutralization IC50” value worked out at 0.257 µg/mL.

For the molecule B3, the “neutralization IC50” value is 0.416 µg/mL.

As for B4, the “neutralization IC50” value worked out at 2.25 µg/mL.

For B5, the “neutralization IC50” value stood at 0.433 µg/mL.

As to B6, the “neutralization IC50” value came out at 0.22 µg/mL.

In another test the target is antibody 10-1074. Kind of test: neutralization IC80; higher = virus less sensitive to the antibody. How it is done:
as §1
For the molecule B1, the “neutralization IC80” value was determined as 0.037 µg/mL.

On to B2, for which the “neutralization IC80” value came out at 0.262 µg/mL.

As for B3, the “neutralization IC80” value came to 0.366 µg/mL.

Consider B4, for which the “neutralization IC80” value worked out at 0.005 µg/mL.

In the case of B5, the “neutralization IC80” value came out at 0.13 µg/mL.

Turning to B6, the “neutralization IC80” value was 29.7 µg/mL.

Another test has as its target antibody 3BNC117. The description is as above. How it is done:
as §1
For B1, the “neutralization IC80” value is over 50 µg/mL.

As for B2, the “neutralization IC80” value is 0.524 µg/mL.

In the case of B3, the “neutralization IC80” value turned out to be 0.947 µg/mL.

As for B4, the “neutralization IC80” value is over 50 µg/mL.

In the case of B5, the “neutralization IC80” value was 0.932 µg/mL.

Take B6: the “neutralization IC80” value was found to be 0.767 µg/mL.

The record behind these values is the supplement of paper PMC12637763.
